Pooled drug test results. Numbers come from NIAID ChemDB, via PubChem.

Common to all: growth or infection tests; species: Hepatitis C virus; measure: EC90

An empty or dashed field is not shown. ECn is the concentration giving n% inhibition of infection, replication or growth. Lines come from different laboratories, so protocols vary.

SMILES,strain or isolate,cell line,read by,conditions,value
NC(=S)N/N=C/c1ccc(Br)cc1F,,Huh7 ET,PCR,,>20 µM
Nc1ncnc2c1ncn2[C@@H]1O[C@H](CO)[C@@H](F)[C@@H]1F,,Huh7,replicon,,10 µM
C[C@@]1(F)[C@H](O)[C@@H](CO)O[C@H]1n1ccc(=O)[nH]c1=O,S282T mutant,,replicon / PCR,,>100 µM
C[C@@]1(F)[C@H](O)[C@@H](CO)O[C@H]1n1cc(Cl)c2c(N)ncnc21,,CEM,replicon,,>10 µM
CC(C)(C)OC(=O)[C@@H](NC(=O)N[C@H](C(=O)N1C[C@H]2C([C@H]1C(=O)NC(CC1CC1)C(=O)C(N)=O)C2(C)C)C1Cc2ccccc2C1)C(C)(C)C,,,replicon,,0.4 µM
Nc1c2n(c(=O)[nH]c1=O)C1OC(CN2)[C@@H](O)[C@H]1O,,Huh7,replicon,,85 µM
CCC(C)C(NC(=O)NC(C(=O)N1C[C@H]2C([C@H]1C(=O)NC(CC1CC1)C(=O)C(=O)NCC(=O)N[C@H](C(=O)N(C)C)c1ccccc1)C2(C)C)C(C)(C)C)C(=O)O,,,replicon,,10 µM
CC(C)(C)C(=O)OCOP(=O)(CC[C@H]1O[C@@H](n2ccc(N)nc2=O)[C@](C)(F)[C@@H]1O)OCOC(=O)C(C)(C)C,,Huh7,PCR,,>10 µM
CC(C)[C@@](C)(NC(=O)N[C@H](C(=O)N1C[C@H]2C([C@H]1C(=O)NC(CC1CC1)C(=O)C(N)=O)C2(C)C)C(C)(C)C)C(=O)OCc1ccccc1,,,replicon,,3.4 µM
C[C@@]1(F)[C@H](O)[C@@H](CO)O[C@H]1n1ccc2c(N)nc(N)nc21,,CEM,replicon,,>10 µM
Nc1ccn([C@@H]2O[C@H](CO)[C@@H](O)[C@H]2F)c(=O)n1,,Huh7,replicon,,5.6 µM
C[C@@]1(F)[C@H](O)[C@@H](CO)O[C@@H]1n1cc(Br)c2c(N)ncnc21,,CEM,replicon,,>10 µM
COc1c(C(C)(C)C)cc(-n2ccc(=O)[nH]c2=O)c2ncc(-c3ccc(NS(C)(=O)=O)cc3)cc12,GT-1b Con1,Huh7,replicon,40% human serum,0.047 µM
Nc1nc(Cl)nc2c1ncn2[C@H]1O[C@H](CO)[C@@H](F)[C@@H]1F,,Huh7,replicon,,>10 µM
C[C@@]1(F)[C@H](O)[C@@H](CO)O[C@@H]1n1cc(Cl)c2c(N)ncnc21,,CEM,replicon,,>10 µM
CC(C)(C)C(=O)OCOP(=O)(CC[C@H]1O[C@@H](n2cnc3c(N)nc(N)nc32)[C@](C)(F)[C@@H]1O)OCOC(=O)C(C)(C)C,,Huh7,PCR,,>10 µM
CNc1ncnc2c1c(F)cn2[C@H]1O[C@H](CO)[C@@H](O)[C@@]1(C)F,,CEM,replicon,,>10 µM
Nc1nc(=O)n([C@@H]2O[C@H](CO)[C@@H](O)[C@H]2F)cc1F,,Huh7,replicon,,9.4 µM
CC1CCCC1OC(=O)[C@@H](NC(=O)N[C@H](C(=O)N1C[C@H]2C([C@H]1C(=O)NC(CC1CC1)C(=O)C(N)=O)C2(C)C)C(C)(C)C)C(C)(C)C,,,replicon,,1.3 µM
C[C@@]1(F)[C@H](O)[C@@H](CO)O[C@H]1n1cc(I)c2c(N)nc(N)nc21,,CEM,replicon,,>10 µM

Again, the opening 2 rows:

SMILES | strain or isolate | cell line | read by | conditions | value
NC(=S)N/N=C/c1ccc(Br)cc1F |  | Huh7 ET | PCR |  | >20 µM
Nc1ncnc2c1ncn2[C@@H]1O[C@H](CO)[C@@H](F)[C@@H]1F |  | Huh7 | replicon |  | 10 µM